Biological target: CD4 protein with His tag (CD4-His) (human)
Assay: BLI

Kd: < 1 pM
B1: Ibalizumab (antibody, V domains shown)
VH: QVQLQQSGPEVVKPGASVKMSCKASGYTFTSYVIHWVRQKPGQGLDWIGYINPYNDGTDYDEKFKGKATLTSDTSTSTAYMELSSLRSEDTAVYYCAREKDNYATGAWFAYWGQGTLVTVSS
VL: DIVMTQSPDSLAVSLGERVTMNCKSSQSLLYSTNQKNYLAWYQQKPGQSPKLLIYWASTRESGVPDRFSGSGSGTDFTLTISSVQAEDVAVYYCQQYYSYRTFGGGTKLEIK
